Results taken from patent US9907860B2, “Conjugated molecules comprising a peptide derived from the CD4 receptor coupled to an anionic polypeptide for the treatment of AIDS” (INSTITUT PASTEUR, priority 2014, dated 2018).

How the values were obtained:
[1] = test system: SHIV162p3 viral strain (B-R5); type: cell-based; details: TZM-bl cells, luciferase, 48 h; clade-tropism B-R5
Experimental: (§1) The antiviral activity of the tested compounds was determined by pre-incubating 10^4 TZM-bl cells/well in a 96-well plate for 30 min at 37° C. and 5% CO2 with or without a serial dilution of the compound. Next, 200 TCID50 of viruses were added to each well and cultures were incubated for 48 h before luciferase activity was quantified. Each compound was tested in triplicate in a single experiment. Antiviral activity was expressed as the percentage of viral inhibition compared to the untreated control and plotted against the compound concentration. Next, non-linear regression analysis was used to calculate the 50% effective concentration (EC50).
(§2) The miniCD4 conjugates were then evaluated for their antiviral activity on TZM-bl cells that express Luciferase under the control of the HIV LTR (collaboration G. Vanham, Anvers) according to the protocol described above. All antiviral results are reported in the table below in the form of EC50 values (nM).

[2] = test system: Bal viral strain (B-R5); type: cell-based, HIV
Experimental: as §1, §2

[3] = test system: Ca10-3 (CRF01) viral strain (AE-X4); type: cell-based, HIV; details: TZM-bl cells, luciferase, 48 h; clade-tropism AE-X4
Experimental: as §1, §2

[4] = test system: IIIB viral strain (B-X4); type: cell-based, HIV; details: TZM-bl cells, luciferase, 48 h; clade-tropism B-X4
Experimental: as §1, §2

[5] = test system: MN viral strain (B-X4); type: cell-based, HIV; details: TZM-bl cells, luciferase, 48 h; clade-tropism B-X4
Experimental: as §1, §2

[6] = test system: MP568 (CRF02) viral strain (AG-R5); type: cell-based, HIV; details: TZM-bl cells, luciferase, 48 h; clade-tropism AG-R5
Experimental: as §1, §2

[7] = test system: SF162 viral strain (B-R5); type: cell-based, HIV
Experimental: as §1, §2

[8] = test system: VI1888 (CRF01) viral strain (AE-R5); type: cell-based, HIV
Experimental: as §1, §2

[9] = test system: VI820 viral strain (A-X4R5); type: cell-based, HIV; details: TZM-bl cells, luciferase, 48 h; clade-tropism A-X4R5
Experimental: as §1, §2

[10] = test system: VI824 viral strain (D-R5); type: cell-based, HIV; details: TZM-bl cells, luciferase, 48 h; clade-tropism D-R5
Experimental: as §1, §2

[11] = test system: VI829 viral strain (C-R5); type: cell-based, HIV; details: TZM-bl cells, luciferase, 48 h; clade-tropism C-R5
Experimental: as §1, §2

[12] = test system: p246F10 viral strain (C-R5); type: cell-based, HIV; details: TZM-bl cells, luciferase, 48 h; clade-tropism C-R5
Experimental: as §1, §2

[13] = test system: pREJO.c/2864 cl2 viral strain (B-R5); type: cell-based, HIV; details: TZM-bl cells, luciferase, 48 h; clade-tropism B-R5
Experimental: as §1, §2

[14] = test system: HIV viral strains; assay: Antiviral activity on TZM-bl cells, across the viral strains tested; type: cell-based
Experimental: as §1, §2

[15] = Cytotoxic activity, WST-1 cell proliferation assay; type: cell-based; details: human; WST-1, 48 h
Experimental: Cytotoxicity was determined using the water-soluble tetrazolium-1 (WST-1) cell proliferation assay, which is based on the cleavage of the tetrazolium salt WST-1 to a formazan dye by cellular dehydrogenases. Because this bioreduction is dependent on the glycolytic production of NAD(P)H in viable cells, the amount of formazan dye formed is correlated directly to the number of viable cells in a culture. Quantification is performed by measuring absorbance at 450 nm in a multiwell plate reader. An amount of 10^4 cells was plated per well in a 96-well plate, and a serial dilution of compound was added. Forty eight hours later, cell proliferation reagent was added and cell viability was measured compared to untreated control cultures. Cell viability was plotted against the compound concentration, and nonlinear regression analysis was performed to evaluate the 50% cytotoxic concentration (CC50).
The miniCD4 conjugates were then evaluated for their cytotoxic activity according to the protocol described above. All cytotoxic results are reported in the table below in the form of CC50 values (nM).

[16] = test system: HIV-1 NL4-3 (X4) in primary CD4+ T cells; assay: Viral cell-to-cell transmission assay, HIV-1 NL4-3; type: cell-based; details: X4 virus HIV-1 NL4-3, primary CD4+ T cells, intracellular Gag
Experimental: (§3) Primary CD4+ T cells were purified from human peripheral blood by positive selection (Miltenyi). About 98% of cells were CD4+CD3+. For activation, primary T cells were treated with phytohemagglutinin (PHA) (1 μg/ml) for 24 h and then cultured with interleukin 2 (IL-2) (50 IU/ml) for 3-5 days before use. Primary cells were infected with HIV-1 NL4-3 and NLAD8 as described in Lepelley et al. PLoS Pathog 2011, 7:e1001284 and Malbec et al. J Exp Med 2013, 210:2813-2821. Donor cells were used a few days later, when about 20% of the cells were Gag+. Target cells were labeled with FarRed (2.5 μM; Molecular Probes). Donors were preincubated 1 h with the indicated doses of compounds. Donor and target cells were then mixed at a 1:2 ratio in 96-well plates at a final concentration of 1.5×10^6/ml in 200 μl, in duplicates. After 48, 72 or 96 h, cells were stained for intracellular Gag (KC57 mAb, Coulter) and analyzed by flow cytometry. When stated, Nevirapine (NVP; 12.5 nM) or the NIH45-46 broadly neutralizing antibody (bNAb) (Malbec et al. J Exp Med 2013, 210:2813-2821) was added 1 h before coculture.
(§4) mCD4.1, mCD4.2, mCD4.3 and their PS1 conjugates, as well as Nevirapine and NIH45-46, were evaluated for their capacity to inhibit cell-cell HIV transmission. This was performed using primary cells infected with R5 (HIV1-NLAD8) and X4 (HIV1-NL4-3) viruses.

[17] = test system: HIV-1 NLAD8 (R5) in primary CD4+ T cells; assay: Viral cell-to-cell transmission assay, HIV-1 NLAD8; type: cell-based; details: R5 virus HIV-1 NLAD8, primary CD4+ T cells, intracellular Gag
Experimental: as §3, §4

Compound: CC(C)C[C@@H]1NC(=O)CNC(=O)[C@H](CC(C)C)NC(=O)[C@H](CO)NC(=O)[C@H](CO)NC(=O)[C@@H]2CSSC[C@@H](C(=O)N[C@H](C(N)=O)C(C)C)NC(=O)[C@H](C)NC(=O)[C@@H]3CSSC[C@H](NC(=O)[C@H](CCCCNC(=O)CCOCCOCCNC(=O)CCN4C(=O)CC(SCCC(=O)NCCCC(=O)N[C@@H](CO)C(=O)N[C@@H](Cc5ccc(OS(=O)(=O)O)cc5)C(=O)N[C@@H](CC(=O)O)C(=O)N[C@@H](Cc5ccc(OS(=O)(=O)O)cc5)C(=O)N[C@@H](CO)C(=O)N[C@@H](Cc5ccc(OS(=O)(=O)O)cc5)C(=O)N[C@@H](CC(=O)O)C(=O)N[C@@H](Cc5ccc(OS(=O)(=O)O)cc5)C(=O)N[C@@H](CO)C(=O)N[C@@H](Cc5ccc(OS(=O)(=O)O)cc5)C(=O)N[C@@H](CC(=O)O)C(=O)N[C@@H](Cc5ccc(OS(=O)(=O)O)cc5)C(=O)N[C@@H](CO)C(=O)O)C4=O)NC(=O)[C@H](Cc4c[nH]cn4)NC(=O)[C@H](CC(C)C)NC(=O)[C@H](CC(N)=O)NC(=O)CCSSC[C@H](NC(=O)[C@H](CCCNC(=N)N)NC(=O)CNC(=O)[C@H](CC(C)C)NC1=O)C(=O)N[C@@H](C)C(=O)N1CCC[C@@H]1C(=O)N[C@@H]([C@@H](C)O)C(=O)N[C@@H](Cc1ccc(OCC4CCCCC4)cc1)C(=O)N3)C(=O)N[C@@H](CCC(N)=O)C(=O)N[C@@H](CC(C)C)C(=O)N[C@@H](CCCNC(=N)N)C(=O)N2 (stereo partly drawn) [mCD4.2-PS1]
- EC50 [1]: 2.2 nM
- fold increase of HIV antiviral activity compared to mCD4.1-PS1 ([2]; R5 strain Ba_L): 25 fold
- EC50 ([2]; TZM-bl cells, luciferase, 48 h, clade-tropism B-R5, read-out: EC50, viral strain Bal): 0.034 nM
- EC50 ([2]; discussion, read-out: EC50, Bal strain, B-R5): 0.034 nM
- EC50 [3]: 0.12 nM
- EC50 [4]: 0.007 nM
- EC50 [5]: 0.046 nM
- EC50 [6]: 4.9 nM
- fold increase of HIV antiviral activity compared to mCD4.1-PS1 ([7]; R5 strain SF162): 25 fold
- EC50 ([7]; discussion, read-out: EC50, SF162 strain, B-R5): 0.01 nM
- EC50 ([8]; TZM-bl cells, luciferase, 48 h, clade-tropism AE-R5, read-out: EC50, viral strain VI1888 (CRF01)): 1060 nM
- EC50 ([8]; discussion, read-out: EC50 for CRF01_AE R5): 1100 nM
- EC50 [9]: 0.031 nM
- EC50 [10]: 0.68 nM
- EC50 [11]: 4 nM
- EC50 [12]: 58 nM
- EC50 [13]: 0.27 nM
- fold increase of antiviral activity compared to mCD4.2 alone [14]: 9-190 fold
- CC50 at 48 h [15]: > 50000 nM
- block of cell-cell virus transmission [16]: able to block cell-cell virus transmission
- block of cell-cell virus transmission [17]: able to block cell-cell virus transmission

Where two headings read alike, the source gives them in different places.
